A mixed list of measured activities; the numbers were collected in NIAID ChemDB.

Shared fields: growth or infection tests; organism: Mycobacterium fortuitum; read-out: MIC

Neighbouring rows are from separate reports. Blank or dashed fields: not listed here.

SMILES	method	conditions	strain	result
CCN1C(=O)C(=O)N(CC)C1=[Se]			CA10	6 µg/mL
CNCC1CCN(c2c(F)cc3c(=O)c(C(=O)O)cn(-c4ccc(F)cc4F)c3c2F)C1			ATCC 6841	0.25 µg/mL
Nc1nc(N)c2c(n1)NC(c1ccc(F)cc1)CC(c1ccc3c(c1)OCO3)=N2	MTT / broth dilution / absorbance	clinical isolate	MNT1073	>32 µg/mL
NC1CCN(c2c(F)cc3c(=O)c(C(=O)O)cn(-c4ccc(F)cc4F)c3c2F)C1			ATCC 6841	0.25 µg/mL
COc1cc(O)cc(/C=C/c2cc3ccccc3s2)c1	broth dilution			16 µg/mL
Nc1nc(N)c2c(n1)NC(c1ccccc1)CC(c1ccc3c(c1)OCO3)=N2	MTT / broth dilution / absorbance	clinical isolate	MNT1073	>32 µg/mL
CNCC1CCN(c2c(F)cc3c(=O)c(C(=O)O)cn(C4CC4)c3c2C(F)(F)F)C1			ATCC 6841	8 µg/mL
O=C1C(=O)N(c2ccccc2)C(=S)N1c1ccccc1			CA10	>100 µg/mL
Nc1nc(N)c2c(n1)NC(c1ccc(Cl)cc1)CC(c1ccc3c(c1)OCO3)=N2	MTT / broth dilution / absorbance	clinical isolate	MNT1073	>32 µg/mL
CN1C(=O)C(=O)N(C)C1=[Se]			CA10	25 µg/mL
CNCC1CCN(c2nc3c(cc2F)c(=O)c(C(=O)O)cn3-c2ccc(F)cc2F)C1			ATCC 6841	0.5 µg/mL
COc1ccc(C2CC(c3ccc4c(c3)OCO4)=Nc3c(N)nc(SC)nc3N2)cc1	MTT / broth dilution / absorbance	clinical isolate	MNT1073	>32 µg/mL
CC1(C)N=C([Se])NC1=O			CA10	6 µg/mL
COc1c(N2CCNC(C)C2)c(F)cc2c(=O)c(C(=O)O)cn(-c3ccc(F)cc3F)c12			ATCC 6841	1 µg/mL
Nc1nc(N)c2c(n1)NC(c1ccc3c(c1)OCO3)CC(c1ccccc1)=N2	MTT / broth dilution / absorbance	clinical isolate	MNT1073	>32 µg/mL

The first 2 rows once more:

SMILES	method	conditions	strain	result
CCN1C(=O)C(=O)N(CC)C1=[Se]			CA10	6 µg/mL
CNCC1CCN(c2c(F)cc3c(=O)c(C(=O)O)cn(-c4ccc(F)cc4F)c3c2F)C1			ATCC 6841	0.25 µg/mL